Experimental data published in PubChem BioAssay AID651644 (National Center for Advancing Translational Sciences (NCATS), 2012).
The list shows a part of the results, in another mix than the full data. The source made the active and inactive calls. The call rests on the fitted dose curve; in most records, active means well fitted falling curve with a large enough effect; inconclusive means small, poorly fitted or top-dose-only effect; inactive means no such curve, though single readings can be large or run the other way.
Potency means the concentration at half of the fitted maximal effect.

Assay: qHTS Assay for Inhibitors of the HIV-1 protein Vpr; further: nearly all actives have a fitted effect of over 50% in size
Conditions: S. pombe RE007 Vpr strain, BacTiter-Glo ATP luminescence, 24 h
For `O=P(Nc1nccs1)(c1ccccc1)c1nc2ccccc2s1` (stereo unspecified), the Potency was active: 15.8 µM.
